A mixed list of measured activities; the numbers were collected in NIAID ChemDB.

Shared fields: growth or infection tests; species: Aspergillus fumigatus; measure: MIC50

Lines come from different laboratories, so protocols vary. Blank or dashed fields: not listed here. MIC50, MIC90 and the like: level of inhibition, or share of isolates inhibited. a–b is a range or a potency band.

compound	strain or isolate	result
CCCCCOc1ccc(-c2cc(-c3ccc(C(=O)N[C@H]4C[C@@H](O)[C@@H](O)NC(=O)[C@@H]5[C@@H](O)[C@@H](C)CN5C(=O)[C@H]([C@H](O)CC(N)=O)NC(=O)[C@H]([C@H](O)[C@@H](O)c5ccc(O)c(OS(=O)(=O)O)c5)NC(=O)[C@@H]5C[C@@H](O)CN5C(=O)[C@H]([C@@H](C)O)NC4=O)cc3)no2)cc1	25 isolates	0.03 µg/mL
CCC(C)n1ncn(-c2ccc(N3CCN(c4ccc(OC[C@H]5CO[C@](Cn6cncn6)(c6ccc(Cl)cc6Cl)O5)cc4)CC3)cc2)c1=O	35 isolates	0.25 µg/mL
OC(Cn1cncn1)(Cn1cncn1)c1ccc(F)cc1F	25 isolates	>128 µg/mL
C[C@@H](c1ncncc1F)[C@](O)(Cn1cncn1)c1ccc(F)cc1F	62 isolates	0.25 µg/mL
COc1cc(O)c2c(c1)C(=O)c1c(cc3c(c1O)-c1c(cc(C)c(C(=O)NC(CO)C(=O)O)c1O)[C@H](OC1OC(C)C(O)C(OC4OCC(O)C(O)C4O)C1O)C3O)C2=O	35 isolates	8 µg/mL
C[C@H]1[C@H](O)[C@@H](C)/C=C/C=C/C=C/C=C/C=C/C=C/C=C/[C@H](O[C@@H]2O[C@H](C)[C@@H](O)[C@H](N)[C@@H]2O)C[C@@H]2O[C@](O)(C[C@@H](O)C[C@@H](O)CC[C@H](O)[C@@H](O)C[C@@H](O)CC(=O)O[C@H]1C)C[C@H](O)[C@H]2C(=O)O	-	0.39 µg/mL
CCCCCCCCOc1ccc(-c2ccc(C(=O)NC3CC(NCCN)CNC(=O)[C@@H]4[C@@H](O)[C@@H](C)CN4C(=O)[C@@H](CO)NC(=O)[C@H]([C@H](O)Cc4ccccc4)NC(=O)[C@@H]4C[C@@H](O)CN4C(=O)[C@H]([C@@H](C)O)NC3=O)cc2)cc1	25 isolates	0.25 µg/mL
CCN1CCC(O)(/C=C/c2ccc(Cl)cc2)C(C(=O)/C=C/c2ccc(Cl)cc2)C1	18 strains (amphotericin B-resistant)	5.84 µg/mL
C[C@@H](c1ncncc1F)[C@](O)(Cn1cncn1)c1ccc(F)cc1F	25 isolates	0.25 µg/mL
C[C@H]1[C@H](O)[C@@H](C)/C=C/C=C/C=C/C=C/C=C/C=C/C=C/[C@H](O[C@@H]2O[C@H](C)[C@@H](O)[C@H](N)[C@@H]2O)C[C@@H]2O[C@](O)(C[C@@H](O)C[C@@H](O)CC[C@H](O)[C@@H](O)C[C@@H](O)CC(=O)O[C@H]1C)C[C@H](O)[C@H]2C(=O)O	3 clinical isolates	1 µg/mL
C[C@H]1[C@H](O)[C@@H](C)/C=C/C=C/C=C/C=C/C=C/C=C/C=C/[C@H](O[C@@H]2O[C@H](C)[C@@H](O)[C@H](N)[C@@H]2O)C[C@@H]2O[C@](O)(C[C@@H](O)C[C@@H](O)CC[C@H](O)[C@@H](O)C[C@@H](O)CC(=O)O[C@H]1C)C[C@H](O)[C@H]2C(=O)O	150 clinical isolates	0.5–1 µg/mL
Clc1ccc(COC(Cn2ccnc2)c2ccc(Cl)cc2Cl)c(Cl)c1	25 isolates	4 µg/mL
CCC(C)CC(C)CCCCCCCCC(=O)N[C@H]1C[C@@H](O)[C@H](NCCN)NC(=O)[C@@H]2[C@@H](O)CCN2C(=O)[C@H]([C@H](O)CCN)NC(=O)[C@H]([C@H](O)[C@@H](O)c2ccc(O)cc2)NC(=O)[C@@H]2C[C@@H](O)CN2C(=O)[C@H]([C@@H](C)O)NC1=O	28 isolates	0.06 µg/mL
C[C@@H](c1nc(-c2ccc(C#N)cc2)cs1)[C@](O)(Cn1cncn1)c1cc(F)ccc1F	62 isolates	0.5 µg/mL

A second listing of 2 rows from above:

{"compound": "C[C@@H](c1nc(-c2ccc(C#N)cc2)cs1)[C@](O)(Cn1cncn1)c1cc(F)ccc1F", "strain or isolate": "62 isolates", "result": "0.5 µg/mL"}
{"compound": "COc1cc(O)c2c(c1)C(=O)c1c(cc3c(c1O)-c1c(cc(C)c(C(=O)NC(CO)C(=O)O)c1O)[C@H](OC1OC(C)C(O)C(OC4OCC(O)C(O)C4O)C1O)C3O)C2=O", "strain or isolate": "35 isolates", "result": "8 µg/mL"}